Results of unrelated studies side by side (data: NIAID ChemDB).

All rows: growth or infection tests; species: HIV-1; read-out: EC50

Blank or dashed fields: not listed here. Two numbers with a dash give a range or band. ECn: concentration that inhibits the pathogen or its effect by n%. Lines come from different laboratories, so protocols vary.

compound	cell line	changes	method	strain	conditions	result
CCCCCCOP(=O)(N[C@H](C(=O)OC)C(C)C)OC[C@H]1O[C@@H](n2cc(C)c(=O)[nH]c2=O)C[C@@H]1N=[N+]=[N-]	C8166		p24	RF		10–30 µM
O=C(O)[C@@H](C1CCCCC1)N1C[C@H](CN2CCC(c3cnc(Cc4ccccc4)s3)CC2)[C@@H](c2ccccc2)C1	MAGI		β-galactosidase			<0.00014 µM
O=C(Nc1ccc(Cl)c(C(=O)OC2CCCCC2)c1)c1ccccc1F	CEM	RT-V106A	syncytia			5.3 µM
CC(C)C1CN(C(=O)c2ccccc2)CCN1C(=O)C(=O)c1c[nH]c2cccc(F)c12	HeLa		luciferase / reporter gene	LAI	pseudotyped	0.471 µM
CC(C)CN(C[C@@H](O)[C@H](Cc1ccc(F)cc1)NC(=O)O[C@H]1C2COC3OCC1C3C2)S(=O)(=O)c1ccc2nc(NC3CC3)sc2c1	MT-4		p24	NL4-3		0.00005 µM
CC(=O)OCCCc1cnc2c(c1)c(N)c(C(=O)NCc1ccc(F)cc1F)c(=O)n2O	HOS		luciferase			<0.004 µM
O=C(O)[C@@H](C1CCCCC1)N1C[C@H](CN2CCC(c3cnc(-c4ccccc4)[nH]3)CC2)[C@@H](c2ccccc2)C1	MAGI		β-galactosidase			<0.033 µM
COC(=O)[C@@H](NP(=O)(OC)OC[C@H]1O[C@@H](n2cc(C)c(=O)[nH]c2=O)C[C@@H]1N=[N+]=[N-])C(C)C	C8166		p24	RF		3 µM
Nc1nc2c(ncn2[C@@H]2O[C@H](CO)[C@H]2CO)c(=O)[nH]1	MT-4		RT activity / antigen	IIIB		7.3 µg/mL
Cc1noc(C)c1CNC[C@H](O)[C@@]12CC[C@]3(C)[C@H](CC[C@@H]4[C@@]5(C)CC[C@H](OC(=O)[C@H]6C[C@@H](C(=O)O)C6(C)C)C(C)(C)[C@@H]5CC[C@]43C)C1=C(C(C)C)C(=O)C2	MT-2		p24 / ELISA	92HT599		<1 µM
Cc1cn([C@H]2C=C[C@@H](CO)O2)c(=O)[nH]c1=O	CEM + CEM-SS			LAI		0.059 µM
CC1CN(C(=O)C(=O)c2c[nH]c3cccc(F)c23)CCN1C(=O)c1ccccc1	HeLa		luciferase / reporter gene	JR-FL	pseudotyped	0.00214 µM
CSCC[C@H](NC(=O)[C@H](CCO)N(Cc1ccccc1)C(=O)[C@H](Cc1ccccc1)NC(=O)OCc1ccccc1)C(=O)NC(C)(C)C	CEM + CEM-SS		p24	IIIB		0.245 µM
Cc1ccoc1C(=S)Nc1ccc(Cl)c(C(=O)OC(C)C)c1	CEM	RT-E138K	syncytia			12 µM
CSCC[C@H](NC(=O)[C@H](CO)N(Cc1ccccc1)C(=O)[C@H](CC(C)C)NC(=O)OCc1ccccc1)C(=O)NC(C)(C)C	CEM + CEM-SS		p24	IIIB		0.543 µM
C/C=C/CSc1cc(NC(=S)c2ccsc2C)ccc1Cl	CEM	RT-K103N	syncytia			0.22 µM
CC(C)C1=C2[C@H]3CC[C@@H]4[C@@]5(C)CC[C@H](OC(=O)[C@H]6C[C@@H](C(=O)O)C6(C)C)C(C)(C)[C@@H]5CC[C@@]4(C)[C@]3(C)CC[C@@]2(CC(=O)NCC2CCCCC2)CC1=O	MT-2		p24 / ELISA	92HT599		<1 µM
Nc1c(C(=O)NCc2ccc(F)cc2F)c(=O)n(O)c2ncc(CCCCCCO)cc12	HOS	AGC (GGGAGC)	luciferase			<0.003 µM
O=C(C(=O)N1CCN(C(=O)c2ccccc2)CC1)c1c[nH]c2cccc(F)c12	HeLa		luciferase / reporter gene	JR-FL	pseudotyped	2.4 µM
CC[C@@H](O)C1=C[C@@H](n2cnc3c(N)ncnc32)[C@H](O)[C@@H]1O	CEM		cytopathic effect			>200 µg/mL
CC(C)=CCOc1cc(NC(=S)c2ccsc2C)ccc1Cl	CEM	RT-L100I	syncytia			0.017 µM
Cc1cn([C@H]2C[C@H](N=[N+]=[N-])[C@@H](COP(=O)(N[C@@H](C)C(=O)OCc3ccccc3)Oc3ccccc3)O2)c(=O)[nH]c1=O	C8166		ELISA	RF		0.3 µM
CN(C(=O)[C@H](Cc1ccccc1)NC(=O)Cc1c[nH]c2ccc(Cl)cc12)c1ccccc1		T107N	cytopathic effect	NL4-3		4.5 µM
Cc1ccsc1C(=O)Nc1ccc(Cl)c(C(=O)OC2CCCCC2)c1	CEM	RT-V106A	syncytia			18 µM
CCCCCC1CN(C(=O)C(=O)c2c[nH]c3cccc(F)c23)CCN1C(=O)c1ccccc1	HeLa		luciferase / reporter gene	LAI	pseudotyped	>5 µM
Cc1occc1C(=S)Nc1ccc(Cl)c(OCCC(C)C)c1	CEM	RT-K103N	syncytia			0.45 µM
CCOP(=O)(N[C@@H](Cc1ccccc1)C(=O)OC)OC[C@H]1O[C@@H](n2cc(C)c(=O)[nH]c2=O)C[C@@H]1N=[N+]=[N-]	C8166		p24	RF		10 µM
CCC1CN(C(=O)C(=O)c2c[nH]c3cccc(F)c23)CCN1C(=O)c1ccccc1	HeLa		luciferase / reporter gene	LAI	pseudotyped	0.00538 µM
CSCC[C@H](NC(=O)[C@H](CCO)N(Cc1ccccc1)C(=O)[C@H](Cc1ccccc1)NC(=O)OC1c2ccccc2-c2ccccc21)C(=O)NC(C)(C)C	CEM + CEM-SS		p24	IIIB		0.118 µM
COCCOc1cc(Cl)ccc1C(=O)NC(C)(C)CNC[C@H](O)[C@@]12CC[C@]3(C)[C@H](CC[C@@H]4[C@@]5(C)CC[C@H](OC(=O)[C@H]6C[C@@H](C(=O)O)C6(C)C)C(C)(C)[C@@H]5CC[C@]43C)C1=C(C(C)C)C(=O)C2	MT-2		p24 / ELISA	92HT599		<1 µM
Cc1ccsc1C(=O)Nc1ccc(Cl)c(/C=N/OC(C)(C)C)c1	CEM	RT-L100I	syncytia			13 µM
Cc1cn([C@H]2C[C@H](N=[N+]=[N-])[C@@H](COP(=O)(N[C@@H](C)C(=O)OC3CCCCC3)Oc3ccccc3)O2)c(=O)[nH]c1=O	C8166		ELISA	RF		0.4 µM
CC(C)OC(=O)c1cc(NC(=S)c2cccs2)ccc1Cl	CEM		syncytia	IIIB		0.028 µM
C#C[C@@H](O)C1=C[C@@H](n2cnc3c(N)ncnc32)[C@H](O)[C@@H]1O	CEM		cytopathic effect			>40 µg/mL
CCCC1CN(C(=O)c2ccccc2)CCN1C(=O)C(=O)c1c[nH]c2cccc(F)c12	HeLa		luciferase / reporter gene	LAI	pseudotyped	0.0154 µM
O=C(NCc1c(F)cc(F)cc1F)c1cn2c(c(O)c1=O)C(=O)N1[C@H]3CC[C@H](C3)O[C@@H]1C2	HOS	AGC (GGGAGC)	luciferase			<0.003 µM
O=C(O)[C@@H](C1CCCCC1)N1C[C@H](CN2CCC(c3csc(Cc4ccccc4)n3)CC2)[C@@H](c2ccccc2)C1	MAGI		β-galactosidase			<0.033 µM
C[C@@H]1CN(C(=O)c2ccccc2)CCN1C(=O)C(=O)c1c[nH]c2cccc(F)c12	HeLa		luciferase / reporter gene	JR-FL	pseudotyped	0.00042 µM
CC(C)C1=C2[C@H]3CC[C@@H]4[C@@]5(C)CC[C@H](OC(=O)[C@@H]6C[C@H](C(=O)O)C6(C)C)C(C)(C)[C@@H]5CC[C@@]4(C)[C@]3(C)CC[C@@]2(CC(=O)NC(C)(C)c2ccccc2)CC1=O	MT-2		p24 / ELISA	92HT599		<1 µM
CCCC1CN(C(=O)C(=O)c2c[nH]c3cccc(F)c23)CCN1C(=O)c1ccccc1	HeLa		luciferase / reporter gene	LAI	pseudotyped	0.00355 µM
CC(C)CN(C[C@@H](O)[C@H](Cc1ccccc1)NC(=O)O[C@H]1C2COC3OCC1C3C2)S(=O)(=O)c1ccc2nc(NC3CC3)sc2c1	MT-4		p24	NL4-3		0.00017 µM
CC1=C(C(=S)Nc2ccc(Cl)c(/C=N/OC(C)(C)C)c2)CCO1	CEM		syncytia	IIIB		0.017 µM
Nc1nc(N)c2ncn([C@@H]3O[C@H](CO)[C@H]3CO)c2n1	MT-4		RT activity / antigen	IIIB		4.7 µg/mL
CC(C)c1c(Cc2ccccc2)n(COCc2ccccc2)c(=O)[nH]c1=O	MT-4	Y181C	p24 / ELISA	A17		2.398 µM
CC(C)OC(=O)c1cc(NC(=S)c2ccsc2)ccc1Cl	CEM	RT-Y181C	syncytia			22 µM
CC(C)C1=C2[C@H]3CC[C@@H]4[C@@]5(C)CC[C@H](OC(=O)[C@H]6C[C@@H](C(=O)O)C6(C)C)C(C)(C)[C@@H]5CC[C@@]4(C)[C@]3(C)CC[C@@]2(CCN(CCN(C)C)C(=O)c2ccc(Cl)cc2)CC1=O	MT-2		p24 / ELISA	92HT599		<1 µM
Cc1ccccc1C(=S)Nc1ccc(Cl)c(C(=O)OC(C)C)c1	CEM	RT-E138K	syncytia			1.9 µM
CC(C)C1=C2[C@H]3CC[C@@H]4[C@@]5(C)CC[C@H](OC(=O)[C@H]6C[C@@H](C(=O)O)C6(C)C)C(C)(C)[C@@H]5CC[C@@]4(C)[C@]3(C)CC[C@@]2([C@@H](O)CNCC2(NC(=O)c3ccc(Cl)cc3)CNC2)CC1=O	MT-2		p24 / ELISA	92HT599		<1 µM
CC1=C(C(=S)Nc2ccc(Cl)c(C=NOC(C)(C)C)c2)CCCO1	CEM	RT-Y181C	syncytia			0.067 µM
COC(=O)[C@H](C)NP(=O)(OC[C@H]1O[C@@H](n2cc(C)c(=O)[nH]c2=O)C[C@@H]1N=[N+]=[N-])Oc1ccccc1	C8166		ELISA	RF		0.2 µM
Cn1cccc1C(=S)Nc1ccc(Cl)c(/C=N/OC(C)(C)C)c1	CEM	RT-V106A	syncytia			0.28 µM
CC[C@H](O)C1=C[C@@H](n2cnc3c(N)ncnc32)[C@H](O)[C@@H]1O	CEM		cytopathic effect			>200 µg/mL

A second listing of 6 rows from above:

{"compound": "CC(C)C1=C2[C@H]3CC[C@@H]4[C@@]5(C)CC[C@H](OC(=O)[C@@H]6C[C@H](C(=O)O)C6(C)C)C(C)(C)[C@@H]5CC[C@@]4(C)[C@]3(C)CC[C@@]2(CC(=O)NC(C)(C)c2ccccc2)CC1=O", "cell line": "MT-2", "method": "p24 / ELISA", "strain": "92HT599", "result": "<1 µM"}
{"compound": "CC(C)CN(C[C@@H](O)[C@H](Cc1ccccc1)NC(=O)O[C@H]1C2COC3OCC1C3C2)S(=O)(=O)c1ccc2nc(NC3CC3)sc2c1", "cell line": "MT-4", "method": "p24", "strain": "NL4-3", "result": "0.00017 µM"}
{"compound": "CC(C)C1=C2[C@H]3CC[C@@H]4[C@@]5(C)CC[C@H](OC(=O)[C@H]6C[C@@H](C(=O)O)C6(C)C)C(C)(C)[C@@H]5CC[C@@]4(C)[C@]3(C)CC[C@@]2(CCN(CCN(C)C)C(=O)c2ccc(Cl)cc2)CC1=O", "cell line": "MT-2", "method": "p24 / ELISA", "strain": "92HT599", "result": "<1 µM"}
{"compound": "CC[C@@H](O)C1=C[C@@H](n2cnc3c(N)ncnc32)[C@H](O)[C@@H]1O", "cell line": "CEM", "method": "cytopathic effect", "result": ">200 µg/mL"}
{"compound": "Cc1ccccc1C(=S)Nc1ccc(Cl)c(C(=O)OC(C)C)c1", "cell line": "CEM", "changes": "RT-E138K", "method": "syncytia", "result": "1.9 µM"}
{"compound": "CSCC[C@H](NC(=O)[C@H](CO)N(Cc1ccccc1)C(=O)[C@H](CC(C)C)NC(=O)OCc1ccccc1)C(=O)NC(C)(C)C", "cell line": "CEM + CEM-SS", "method": "p24", "strain": "IIIB", "result": "0.543 µM"}